Results reported in US20210244721A1, “SMALL MOLECULE ENTEROVIRUS INHIBITORS AND USES THEREOF” (priority 2020, published 2021).

System: RD cells
Assay: Cytotoxicity, neutral red method, RD cells

Work on `COc1ccc(CC(C)NCC(O)c2ccc(O)c(NC=O)c2)cc1` (centres unmarked) yielded a CC50 of 146 µM.
`COc1ccc(C[C@@H](C)NC[C@H](O)c2ccc(O)c(NC=O)c2)cc1` was tested, and the CC50 was 146 µM.
